Only a part is listed here, and it is no random draw. The source made the active and inactive calls. Rule as the data show it: active = inhibition above about 12%; inactive = the rest.
biological target: Replicase polyprotein 1ab (Severe acute respiratory syndrome coronavirus) (UniProt P0C6X7); assay: SARS-CoV 3CLpro protease inhibitors, primary screen, biochemical, quenched FRET (AID 1706); settings: recombinant SARS-CoV 3CLpro, quenched FRET peptide cleavage; at 6 µM; stronger effect = higher value

**Q.** With CN1CCC(Nc2ccc(Cl)cc2)CC1 as the compound, how does the inhibition read?
**A.** The inhibition was inactive: -1.35%.

**Q.** Which inhibition does the source give for CCCOc1ccc(C)cc1CN(CCCl)CCCl here?
**A.** The inhibition was inactive: 4.51%.

**Q.** How did the inhibition turn out when COc1cc(OC)cc(C(=O)NCC2(N3CCOCC3)CCCCC2)c1 was run?
**A.** Its inhibition is inactive: 0.76%.

**Q.** For COc1cccc(C(=O)N(c2cc(C)cc(C)c2)C2CCN(C(=O)OC(C)(C)C)CC2)c1, which inhibition is on record?
**A.** The inhibition was inactive: 8.06%.

**Q.** CCC(CO)(C(=O)OC1CN2CCC1CC2)c1ccccc1 (centres undefined) was tested. Which inhibition did it give?
**A.** The inhibition was inactive: 1.38%.

**Q.** How did the inhibition turn out when O=C(O)C1(Nc2ccccc2)CCN(Cc2ccccc2)CC1 was run?
**A.** The inhibition was inactive: 1.71%.

**Q.** CC(C)(C)OC(=O)N1CCC(Nc2ccccc2)CC1 was tested. Which inhibition did it give?
**A.** The inhibition was inactive: -0.93%.

**Q.** With CCCOc1ccc(C(=O)NCC2(N(C)C)CCCCC2)cc1 as the compound, how does the inhibition read?
**A.** The inhibition was inactive: 3.69%.

**Q.** Which inhibition does the source give for CN1CCC(Nc2ccc(F)c(Cl)c2)CC1 here?
**A.** Its inhibition is inactive: 3.04%.

**Q.** For CCOc1ncccc1C(=O)NCC1(N2CCOCC2)CCCCC1, which inhibition is on record?
**A.** The inhibition was inactive: -1.01%.

**Q.** CN(C)c1ccc(C(=O)NCC2(N3CCCCC3)CCCCC2)cc1 was tested. Which inhibition did it give?
**A.** Its inhibition is inactive: 0.99%.

**Q.** Which inhibition does the source give for CCN1CCC(Nc2cccc(F)c2)CC1 here?
**A.** The inhibition was inactive: -4.96%.

**Q.** Which inhibition does the source give for COc1cc(OC)cc(C(=O)NCC2(N3CCCCC3)CCCCC2)c1 here?
**A.** The inhibition was inactive: -1.2%.

**Q.** How did the inhibition turn out when CN(C)C1(CNC(=O)c2cccc(C#N)c2)CCCCC1 was run?
**A.** The inhibition was inactive: -1.62%.

**Q.** Which inhibition does the source give for CCCN1CCC(Nc2cc(OC)cc(OC)c2)CC1 here?
**A.** Its inhibition is inactive: 1.23%.

**Q.** How did the inhibition turn out when c1ccc(CN2CCC(Nc3ccccc3)CC2)cc1 was run?
**A.** The inhibition was inactive: 1.54%.

**Q.** With N#Cc1ccc(C(=O)NCC2(N3CCCCC3)CCCCC2)cc1 as the compound, how does the inhibition read?
**A.** The inhibition was inactive: -1.01%.

**Q.** With CC(C)(C)OC(=O)N1CCC(N(C(=O)c2ccccc2)c2ccc(Cl)cc2)CC1 as the compound, how does the inhibition read?
**A.** The inhibition was inactive: 0.31%.

**Q.** Which inhibition does the source give for O=C(OC1CN2CCC1CC2)C1c2ccccc2C=Cc2ccccc21 (centres undefined) here?
**A.** The inhibition was inactive: -3.01%.

**Q.** Which inhibition does the source give for CCOC(=O)N1CCC(Nc2ccc(C)cc2)CC1 here?
**A.** The inhibition was inactive: -2.06%.

**Q.** N/C(=N\O)c1c(N)no[n+]1[O-] was tested. Which inhibition did it give?
**A.** Its inhibition is inactive: -2.3%.

**Q.** For COc1ccc(C(=O)NCC2(N3CCOCC3)CCCCC2)cc1OC, which inhibition is on record?
**A.** Its inhibition is inactive: -1.47%.

**Q.** How did the inhibition turn out when CCCOc1ccc(C(=O)NCC2(N(C)C)CCCCC2)cc1OC was run?
**A.** Its inhibition is inactive: -6.47%.

**Q.** With CN1CCC(Nc2cccc(F)c2)CC1 as the compound, how does the inhibition read?
**A.** Its inhibition is inactive: 0.81%.

**Q.** For COc1cc(OC)c(C(=O)NCC2(N(C)C)CCCCC2)cc1OC, which inhibition is on record?
**A.** Its inhibition is inactive: 1.34%.

**Q.** For CC(C)c1ccc(NC2CCN(C(=O)OC(C)(C)C)CC2)cc1, which inhibition is on record?
**A.** The inhibition was inactive: 2.41%.

**Q.** With CN(C)c1cccc(C(=O)NCC2(N3CCCCC3)CCCCC2)c1 as the compound, how does the inhibition read?
**A.** Its inhibition is inactive: 0.48%.

**Q.** How did the inhibition turn out when COc1ccc(CN(CCCl)CCCl)cc1Cl was run?
**A.** The inhibition was inactive: 3.27%.

**Q.** With COc1cc(C(=O)NCC2(N3CCCCC3)CCCCC2)ccc1OC(F)F as the compound, how does the inhibition read?
**A.** The inhibition was inactive: -10.4%.

**Q.** How did the inhibition turn out when O=C(NCC1(N2CCOCC2)CCCCC1)c1cc(=O)[nH]c2ccccc12 was run?
**A.** The inhibition was inactive: -3.58%.

**Q.** CN1CCN(CCOC(=O)C(O)(c2ccccc2)c2ccccc2)CC1 was tested. Which inhibition did it give?
**A.** The inhibition was inactive: -0.43%.

**Q.** With COc1ccc(NC2CCN(C(=O)OC(C)(C)C)CC2)cc1 as the compound, how does the inhibition read?
**A.** The inhibition was inactive: 0.39%.

**Q.** O=C(NCC1(N2CCCCC2)CCCCC1)c1cccc(C(F)(F)F)c1 was tested. Which inhibition did it give?
**A.** Its inhibition is inactive: -7.59%.

**Q.** N#CC1(Nc2ccccc2)CCN(CCc2ccccc2)CC1 was tested. Which inhibition did it give?
**A.** The inhibition was inactive: 2.16%.

**Q.** CCN1CCC(Nc2ccc(Cl)cc2)CC1 was tested. Which inhibition did it give?
**A.** Its inhibition is inactive: -1.1%.

**Q.** O=C(NCC1(N2CCCCC2)CCCCC1)c1cccc([N+](=O)[O-])c1 was tested. Which inhibition did it give?
**A.** The inhibition was inactive: -3.09%.

**Q.** Which inhibition does the source give for O=C(NCC1(N2CCCCC2)CCCCC1)c1ccc(OC(F)F)cc1 here?
**A.** The inhibition was inactive: 2.34%.

**Q.** Which inhibition does the source give for Cc1ccc(OCC(C)C)c(CN(CCCl)CCCl)c1 here?
**A.** The inhibition was inactive: 1.76%.

**Q.** How did the inhibition turn out when CCOC(=O)N1CCC(Nc2cccc(C)c2)CC1 was run?
**A.** The inhibition was inactive: 0.78%.

**Q.** For COc1cc(C(=O)NCC2(N(C)C)CCCCC2)ccc1OC(F)F, which inhibition is on record?
**A.** Its inhibition is inactive: -1.27%.

**Q.** For COc1ccc(NC2CCN(CCc3ccccc3)CC2)c(OC)c1, which inhibition is on record?
**A.** Its inhibition is inactive: 1%.

**Q.** CCOC(=O)N1CCC(Nc2ccc(F)cc2)CC1 was tested. Which inhibition did it give?
**A.** Its inhibition is inactive: -6.59%.

**Q.** How did the inhibition turn out when O=C(NCC1(N2CCCCC2)CCCCC1)c1ccc(F)cc1 was run?
**A.** The inhibition was inactive: -0.61%.

**Q.** Which inhibition does the source give for CCOc1ccc(C)cc1CN(CCCl)CCCl here?
**A.** Its inhibition is inactive: 6.38%.

**Q.** N#CC1(Nc2ccccc2)CCN(Cc2ccccc2)CC1 was tested. Which inhibition did it give?
**A.** Its inhibition is inactive: 6.68%.

**Q.** For O=C(OC1CN2CCC1CC2)C1c2ccccc2Oc2ccccc21 (centres undefined), which inhibition is on record?
**A.** Its inhibition is inactive: 0.44%.

**Q.** How did the inhibition turn out when CCOC(=O)N1CCC(Nc2ccc(OC)cc2)CC1 was run?
**A.** The inhibition was inactive: 0.85%.

**Q.** For Cc1cc(C)cc(N(C(=O)c2ccccc2)C2CCN(C(=O)OC(C)(C)C)CC2)c1, which inhibition is on record?
**A.** Its inhibition is inactive: -1.31%.

**Q.** For O=C(NCC1(N2CCOCC2)CCCCC1)c1cc2ccccc2o1, which inhibition is on record?
**A.** The inhibition was inactive: 2.35%.

**Q.** With CSc1ccccc1C(=O)NCC1(N2CCCCC2)CCCCC1 as the compound, how does the inhibition read?
**A.** The inhibition was inactive: 0.51%.

**Q.** Which inhibition does the source give for CC(C)(C)OC(=O)N1CCC(N(C(=O)c2ccccc2)c2ccc(F)cc2)CC1 here?
**A.** Its inhibition is inactive: 3.69%.

**Q.** How did the inhibition turn out when COc1ccc(C(=O)NCC2(N3CCCCC3)CCCCC2)c(OC)c1OC was run?
**A.** The inhibition was inactive: 0.33%.

**Q.** For COc1ccc(C(=O)NCC2(N3CCCCC3)CCCCC2)cc1, which inhibition is on record?
**A.** The inhibition was inactive: 1.4%.

**Q.** How did the inhibition turn out when O=C(NCC1(N2CCCCC2)CCCCC1)c1ccc(=O)[nH]c1 was run?
**A.** The inhibition was inactive: 1.97%.

Reference: PubChem BioAssay AID1706 (The Scripps Research Institute Molecular Screening Center, 2009)
